Anti-infective test results gathered from many reports (values: NIAID ChemDB through PubChem).

Shared fields: whole-cell or culture tests; organism: HIV-1; endpoint: EC50

Rows are shuffled and stem from different studies. ECn is the concentration giving n% inhibition of infection, replication or growth. Blank or dashed fields: not listed here.

structure,strain or isolate,cell line,read by,changes,value
NC(=O)CCNC(=O)c1ccccc1SCc1ccc(OP(=O)(O)O)cc1,RF,CEM,XTT,-,3.28 µM
COc1ccc(C)cc1CS(=O)(=O)c1cccc[n+]1[O-],HE,CEM,syncytia,-,38 µg/mL
Cc1ccnc2c1NC(=O)c1cccnc1N2C1CC1,IIIB,MT-4,MTT,-,0.19 µM
O=c1c2ccccc2sn1/N=C/c1ccccc1Cl,-,MT-4,MTT,-,20 µM
Cc1cc(/C=C/C#N)cc(C)c1Oc1nc(NC2CCN(Cc3cccc(C#N)c3)CC2)nc2ccsc12,IIIB,MT-4,MTT,NNRTI-resistant (RT Y188L),0.051 µM
Cc1ncc(-c2ccc(N(C)CCOc3ccc(F)cc3C#N)cn2)c(N2CCC(C)(C)CC2)c1[C@H](OC(C)(C)C)C(=O)O,NL4-3,MT-2,luminescence,-,0.0126 µM
CCN1c2ncc(CCOc3ccc(-c4ccc[n+]([O-])c4C)cc3C)cc2C(=O)N(C)c2cccnc21,IIIB,C8166,p24,-,<0.01 µM
C=CC(CC)Oc1ccc(-c2cnc(C)c([C@H](OC(C)(C)C)C(=O)O)c2N2CCC(C)(C)CC2)nc1,NL4-3,MT-2,luminescence,-,0.0023 µM
Cc1ccc(C)c(CSc2c(Cl)ccc[n+]2[O-])c1,IIIB,CEM,syncytia,RT-V179D,0.32 µg/mL
Cc1ccc2sn(/N=C/c3ccc([N+](=O)[O-])cc3)c(=O)c2c1,-,MT-4,MTT,-,>100 µM
Cc1ncc(-c2cnc(OCC(C)(F)F)c(F)c2)c(N2CCC(C)(C)CC2)c1[C@H](OC(C)(C)C)C(=O)O,NL4-3,MT-2,luminescence,-,0.0029 µM
CCN1c2ncc(CCOc3ccc(-c4cccc(CC(=O)O)c4)cc3C)cc2C(=O)N(C)c2cccnc21,IIIB,C8166,p24,-,<0.01 µM
Cc1cc(C#N)cc(C)c1Oc1nc(NC2CCC(NCc3ccc(O)cc3)CC2)nc2ccsc12,IIIB,MT-4,MTT,NNRTI-resistant (RT F227L V106A),>20.1 µM
Cc1ccc2sn(/N=C/c3ccccc3O)c(=O)c2c1,-,MT-4,MTT,K103N + Y181C,>30 µM
CCCCCCCCCC[N+](C)(C)CCCNCc1c(O)cc2c(c1O)-c1cc(ccc1O)[C@H]1NC(=O)[C@@H]3NC(=O)C4NC(=O)[C@@H](Cc5ccc(c(Cl)c5)Oc5cc3cc(c5O)Oc3ccc(cc3Cl)[C@@H](O)[C@H](NC1=O)C(=O)N[C@@H]2C(=O)O)NC(=O)[C@H](N)c1ccc(O)c(c1)Oc1cc(O)cc4c1,HE,MOLT-4/C8 + MOLT-4,syncytia,-,3.7 µM
CCN1c2ncc(CCOc3ccc(-c4cnc[nH]4)cc3C)cc2C(=O)N(C)c2cccnc21,IIIB,C8166,p24,-,<0.01 µM
Cc1cc(/C=C/C#N)cc(C)c1Oc1nc(NC2CCN(Cc3ccccc3F)CC2)nc2ccsc12,RES056,MT-4,MTT,-,0.177 µM
O=c1c2ccccc2sn1/N=C/c1cccc(O)c1,-,MT-4,MTT,Y181C,>15 µM
Cc1ncc(-c2ccc(OCCOc3ccccc3F)cn2)c(N2CCC(C)(C)CC2)c1[C@H](OC(C)(C)C)C(=O)O,NL4-3,MT-2,luminescence,-,0.0006 µM
O=c1c2ccccc2sn1/N=C/c1ccc(O)cc1O,-,MT-4,MTT,Y181C,>21 µM
Cc1cc(F)ccc1OCCNc1ccc(-c2cnc(C)c([C@H](OC(C)(C)C)C(=O)O)c2N2CCC(C)(C)CC2)nc1,NL4-3,MT-2,luminescence,-,0.0016 µM
O=c1c2ccccc2sn1/N=C/c1cccc(Cl)c1,-,MT-4,MTT,-,100 µM
Cc1ccc(C)c(CS(=O)(=O)c2cccc[n+]2[O-])c1,IIIB,CEM,syncytia,RT-K103N,11 µg/mL
Cc1ccc2sn(/N=C/c3ccc([N+](=O)[O-])cc3[N+](=O)[O-])c(=O)c2c1,-,MT-4,MTT,-,>100 µM
Cc1ccc(C)c(CS(=O)(=O)c2ccccn2)c1,RF,CEM,syncytia,-,8.4 µg/mL
Cc1cc(C#N)cc(C)c1Oc1nc(NC2CCC(NCc3ccc(F)cc3)CC2)nc2ccsc12,IIIB,MT-4,MTT,NNRTI-resistant (RT K103N),0.883 µM
O=[N+]([O-])c1ccc[n+]([O-])c1SCc1ccccc1,IIIB,MT-2,syncytia,-,2.4 µg/mL
Cc1cc(/C=C/C#N)cc(C)c1Oc1nc(NC2CCN(Cc3ccc(F)cc3)CC2)nc2ccsc12,IIIB,MT-4,MTT,NNRTI-resistant (RT Y188L),0.155 µM
Cc1ccc2sn(/N=C/c3ccc(O)cc3)c(=O)c2c1,-,MT-4,MTT,K103N + Y181C,>23 µM
Cc1ccc(C(C)S(=O)(=O)c2c(C)ccc[n+]2[O-])c(C)c1,IIIB,C8166,syncytia,-,5 µg/mL
Cc1ncc(-c2ccc(N(C)CCOc3ccc(F)cc3C(N)=O)cn2)c(N2CCC(C)(C)CC2)c1[C@H](OC(C)(C)C)C(=O)O,NL4-3,MT-2,luminescence,-,0.0398 µM
Cc1cc(/C=C/C#N)cc(C)c1Oc1nc(NC2CCN(Cc3ccccn3)CC2)nc2ccsc12,IIIB,MT-4,MTT,NNRTI-resistant (RT Y181C),0.00923 µM
Cc1ccc(C)c(C(C)S(=O)(=O)c2c(C)ccc[n+]2[O-])c1,IIIB,CEM,syncytia,RT-V179D,0.35 µg/mL

Again, the opening 3 rows:

{"structure": "NC(=O)CCNC(=O)c1ccccc1SCc1ccc(OP(=O)(O)O)cc1", "strain or isolate": "RF", "cell line": "CEM", "read by": "XTT", "value": "3.28 µM"}
{"structure": "COc1ccc(C)cc1CS(=O)(=O)c1cccc[n+]1[O-]", "strain or isolate": "HE", "cell line": "CEM", "read by": "syncytia", "value": "38 µg/mL"}
{"structure": "Cc1ccnc2c1NC(=O)c1cccnc1N2C1CC1", "strain or isolate": "IIIB", "cell line": "MT-4", "read by": "MTT", "value": "0.19 µM"}